According to patent publication US20060229433A1, “Modified antiviral peptides with increased activity and cell membrane affinity” (priority 2003, published 2006):

Legend:
HIV-1 NL 4-3 = assay: HIV-1 infection of C8166 cells (syncytia formation, p24 ELISA) with HIV-1 NL 4-3; type: cell-based; design: key to Day 4 syncitia formed / Day 5 syncitia formed / Day 6 syncitia formed / Day 7 syncitia formed / syncitia formed, Day 4 / syncitia formed, Day 5 / syncitia formed, Day 6 / syncitia formed, Day 7: ++, +, (+), (+)− and − represent decreasing numbers of syncitia formed; ++, +, (+), (+)− and − represent decreasing numbers of syncitia formed; ++, +, (+), (+)− and − represent decreasing numbers of syncitia formed; ++, +, (+), (+)− and − represent decreasing numbers of syncitia formed; ++, +, (+), (+)− and − represent decreasing numbers of syncitia formed; conditions: for IC50 / syncitia formed, Day 4 / syncitia formed, Day 5 / syncitia formed, Day 6 / syncitia formed, Day 7: C8166 cells; for IC50: HIV-1 subtype B NL 4-3; for Day 4 syncitia formed / Day 5 syncitia formed / Day 6 syncitia formed / Day 7 syncitia formed: Table 6
Description: (§1) HIV-1 NL 4-3 isolate (Adachi et al., 1986; Barré-Sinoussi et al., 1983) and highly cytopathic Zairian HIV-1 NDK isolate (Ellrodt et al., 1984) was propagated in permissive CEM cells (Nara et al., 1987). Uninfected CEM and C8166 (Salahuddin et al., 1983) were maintained in RPMI 1640 (R10) with ultraglutamine (cambrex, Vervier, Belgium), penicillin (100 U/ml), streptomycin (100 μg/ml), and 10% heat-inactivated fetal calf serum (Cambrex).
(§2) Samples of 3×10^5/100 μL C8166 cells were preincubated in 96-well microtiter plates in culture medium containing various concentrations of peptide. After a 1 h treatment at 37° C., 100 μl of diluted viral solution of HIV-1 was added. The cells were exposed to the virus for 1 h at 37° C. at a multiplicity of infection of 1000 TCID50 per ml. The cells were washed three times and cultured at 3×10^5/ml of R10 with the treatment in 24-well plates incubated at 37° C. C8166 culture medium was replaced at Day-4 post-infection. The treatment was permanent before virus adsorption, during virus adsorption and after infection. Assays on C8166 cells have been performed at least twice and in duplicate. Toxicity was evaluated by daily cell count and trypan-blue exclusion assay. Infection of C8166 T-cells with HIV-1 was assessed by virus-induced cytopathic effects (syncytia formation) and by quantification of cell free p24 viral protein in the culture supernatants. Measurements of HIV-1 p24^gag concentration in the culture supernatants were achieved by ELISA (ALLIANCE® HIV-1 p24 kit, Perkin Elmer, life sciences, USA).

HIV-1 NDK = assay: HIV-1 infection of C8166 cells (syncytia formation, p24 ELISA) with HIV-1 NDK; type: cell-based; design: key to syncitia formed, Day 4 / syncitia formed, Day 5 / syncitia formed, Day 6 / syncitia formed, Day 7: ++, +, (+), (+)− and − represent decreasing numbers of syncitia formed; ++, +, (+), (+)− and − represent decreasing numbers of syncitia formed; ++, +, (+), (+)− and − represent decreasing numbers of syncitia formed; ++, +, (+), (+)− and − represent decreasing numbers of syncitia formed; ++, +, (+), (+)− and − represent decreasing numbers of syncitia formed; conditions: for P 24: P 24 after Day 7
Description: as §1, §2

N=C(N)NCCC[C@H](N)C(=O)N[C@@H](CCC(N)=O)C(=O)NCC(=O)N[C@@H](Cc1ccc(O)cc1)C(=O)N[C@@H](CO)C(=O)O [RS monomer, RQGYS, reference compound]
200 nM: IC50 (HIV-1 NL 4-3; Table 3)

C[C@H](NC(=O)[C@H](CCCNC(=N)N)NC(=O)CNC(=O)[C@@H]1CCCN1C(=O)CN)C(=O)O [GPGRA, reference compound]
>5 µM: IC100 (HIV-1 NDK; HIV 1 NDK, Table 10)
++: Day 6 syncitia formed (HIV-1 NL 4-3; 0.005 μM) | syncitia formed, Day 6 (HIV-1 NL 4-3; 0.01 μM) | Day 6 syncitia formed (HIV-1 NL 4-3; 0.01 μM) | syncitia formed, Day 7 (HIV-1 NL 4-3; 0.05 μM) | Day 7 syncitia formed (HIV-1 NL 4-3; 0.05 μM) | syncitia formed, Day 6 (HIV-1 NDK; 0.005 μM) | syncitia formed, Day 7 (HIV-1 NDK; 0.005 μM) | syncitia formed, Day 6 (HIV-1 NDK; 0.01 μM) | syncitia formed, Day 7 (HIV-1 NDK; 0.01 μM) | syncitia formed, Day 6 (HIV-1 NDK; 0.05 μM) | syncitia formed, Day 7 (HIV-1 NDK; 0.05 μM) | syncitia formed, Day 6 (HIV-1 NDK; 0.1 μM) | syncitia formed, Day 7 (HIV-1 NDK; 0.1 μM) | syncitia formed, Day 6 (HIV-1 NDK; 0.5 μM) | syncitia formed, Day 7 (HIV-1 NDK; 0.5 μM) | syncitia formed, Day 7 (HIV-1 NDK; 1 μM)
(+): syncitia formed, Day 5 (HIV-1 NL 4-3; 0.05 μM) | Day 5 syncitia formed (HIV-1 NL 4-3; 0.05 μM) | syncitia formed, Day 5 (HIV-1 NL 4-3; 0.1 μM) | Day 5 syncitia formed (HIV-1 NL 4-3; 0.1 μM) | syncitia formed, Day 7 (HIV-1 NL 4-3; 1 μM) | syncitia formed, Day 7 (HIV-1 NL 4-3; 5 μM) | syncitia formed, Day 4 (HIV-1 NDK; 0.005 μM) | syncitia formed, Day 4 (HIV-1 NDK; 0.01 μM) | syncitia formed, Day 5 (HIV-1 NDK; 0.05 μM) | syncitia formed, Day 5 (HIV-1 NDK; 0.1 μM)
13840 pg/mL and 9310 pg/mL: P 24 (HIV-1 NDK; 0.1 μM)
13010 pg/mL and 10910 pg/mL: P 24 (HIV-1 NDK; 0.05 μM)
30 nM and 20 nM: IC50 (HIV-1 NL 4-3; Table 9, two lines = tested twice, 8 days apart)
40 nM: IC50 (HIV-1 NDK; HIV 1 NDK, Table 10)
3070 pg/mL and 2403 pg/mL: P 24 (HIV-1 NDK; 1 μM)
2726 pg/mL and 2070 pg/mL: P 24 (HIV-1 NDK; 5 μM)
−: Day 4 syncitia formed (HIV-1 NL 4-3; 0.005 μM) | syncitia formed, Day 4 (HIV-1 NL 4-3; 0.01 μM) | Day 4 syncitia formed (HIV-1 NL 4-3; 0.01 μM) | syncitia formed, Day 4 (HIV-1 NL 4-3; 0.05 μM) | Day 4 syncitia formed (HIV-1 NL 4-3; 0.05 μM) | syncitia formed, Day 4 (HIV-1 NL 4-3; 0.1 μM) | Day 4 syncitia formed (HIV-1 NL 4-3; 0.1 μM) | syncitia formed, Day 4 (HIV-1 NL 4-3; 0.5 μM) | syncitia formed, Day 5 (HIV-1 NL 4-3; 0.5 μM) | syncitia formed, Day 6 (HIV-1 NL 4-3; 0.5 μM) | Day 4 syncitia formed (HIV-1 NL 4-3; 0.5 μM) | Day 5 syncitia formed (HIV-1 NL 4-3; 0.5 μM) | Day 6 syncitia formed (HIV-1 NL 4-3; 0.5 μM) | Day 7 syncitia formed (HIV-1 NL 4-3; 0.5 μM) | syncitia formed, Day 4 (HIV-1 NL 4-3; 1 μM) | syncitia formed, Day 5 (HIV-1 NL 4-3; 1 μM) | syncitia formed, Day 6 (HIV-1 NL 4-3; 1 μM) | Day 4 syncitia formed (HIV-1 NL 4-3; 1 μM) | Day 5 syncitia formed (HIV-1 NL 4-3; 1 μM) | Day 6 syncitia formed (HIV-1 NL 4-3; 1 μM) | Day 7 syncitia formed (HIV-1 NL 4-3; 1 μM) | syncitia formed, Day 4 (HIV-1 NL 4-3; 5 μM) | syncitia formed, Day 5 (HIV-1 NL 4-3; 5 μM) | syncitia formed, Day 6 (HIV-1 NL 4-3; 5 μM) | Day 4 syncitia formed (HIV-1 NL 4-3; 5 μM) | Day 5 syncitia formed (HIV-1 NL 4-3; 5 μM) | Day 6 syncitia formed (HIV-1 NL 4-3; 5 μM) | Day 7 syncitia formed (HIV-1 NL 4-3; 5 μM) | syncitia formed, Day 4 (HIV-1 NDK; 0.05 μM) | syncitia formed, Day 4 (HIV-1 NDK; 0.1 μM) | syncitia formed, Day 4 (HIV-1 NDK; 0.5 μM) | syncitia formed, Day 5 (HIV-1 NDK; 0.5 μM) | syncitia formed, Day 4 (HIV-1 NDK; 1 μM) | syncitia formed, Day 5 (HIV-1 NDK; 1 μM) | syncitia formed, Day 4 (HIV-1 NDK; 5 μM) | syncitia formed, Day 5 (HIV-1 NDK; 5 μM) | syncitia formed, Day 6 (HIV-1 NDK; 5 μM)
+: Day 5 syncitia formed (HIV-1 NL 4-3; 0.005 μM) | syncitia formed, Day 5 (HIV-1 NL 4-3; 0.01 μM) | Day 5 syncitia formed (HIV-1 NL 4-3; 0.01 μM) | syncitia formed, Day 6 (HIV-1 NL 4-3; 0.05 μM) | Day 6 syncitia formed (HIV-1 NL 4-3; 0.05 μM) | syncitia formed, Day 6 (HIV-1 NL 4-3; 0.1 μM) | Day 6 syncitia formed (HIV-1 NL 4-3; 0.1 μM) | Day 7 syncitia formed (HIV-1 NL 4-3; 0.1 μM) | syncitia formed, Day 7 (HIV-1 NL 4-3; 0.5 μM) | syncitia formed, Day 5 (HIV-1 NDK; 0.005 μM) | syncitia formed, Day 5 (HIV-1 NDK; 0.01 μM) | syncitia formed, Day 6 (HIV-1 NDK; 1 μM) | syncitia formed, Day 7 (HIV-1 NDK; 5 μM)
+ and ++: syncitia formed, Day 7 (HIV-1 NL 4-3; 0.1 μM)

Values joined by “and” are separate entries in the source; they are usually repeats but may differ in a detail not shown here. Equal values may be shown once.
